Laboratory results published in PMC10221320.
Positions of bridges follow the written chain, without caps; N, C: chain ends. No end group written: not given here.

Target: T1, human ASIC3 truncated by 20 C-terminal amino acid residues (hASIC3-Δ20) (Homo sapiens, UniProt Q9UHC3)
T1 sequence (Q9UHC3 1-511 limits assumed): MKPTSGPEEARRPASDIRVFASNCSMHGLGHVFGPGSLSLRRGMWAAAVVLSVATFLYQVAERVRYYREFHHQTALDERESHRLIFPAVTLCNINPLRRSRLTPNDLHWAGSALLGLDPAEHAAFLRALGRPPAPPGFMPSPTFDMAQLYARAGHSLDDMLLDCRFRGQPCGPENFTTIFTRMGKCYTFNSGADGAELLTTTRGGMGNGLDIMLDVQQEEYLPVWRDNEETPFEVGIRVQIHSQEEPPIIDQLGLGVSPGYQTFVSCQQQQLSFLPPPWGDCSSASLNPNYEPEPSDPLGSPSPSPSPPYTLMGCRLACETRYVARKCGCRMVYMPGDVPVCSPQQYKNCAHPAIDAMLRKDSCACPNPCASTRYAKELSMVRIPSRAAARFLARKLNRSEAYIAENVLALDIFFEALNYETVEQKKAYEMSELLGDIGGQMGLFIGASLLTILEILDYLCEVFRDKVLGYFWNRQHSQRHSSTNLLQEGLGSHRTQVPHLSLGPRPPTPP
Test: Two-electrode voltage clamp, hASIC3-Δ20 in Xenopus laevis oocytes

## GTPCDCYGYTGVYWFMLSRCPSGYGYNLSCHYFMGICCVKR (disulfide 4-37, 6-30, 20-38 (inferred)) [Hmg 1b-4]
  IC50: 14.1 ± 2.5 µM
pH drop from 8.0 to 5.5
  effect on the sustained current component: did not have any significant effect on the sustained component
pH drop from 8.0 to 5.5, n = 5
  nH, Hill coefficient, inhibition of transient current: 1.1 ± 0.2
